The target of assay [1] is Nicotinic acetylcholine receptor alpha9/alpha10 (Rattus norvegicus, UniProt P43144+Q9JLB5).
Assay [2] concerns the target Neuronal acetylcholine receptor subunit alpha-7 (Rattus norvegicus, UniProt Q05941).
The target of assay [3] is Neuronal acetylcholine receptor; alpha3/beta2 (Rattus norvegicus, UniProt P04757+P12390).
The target in assay [4] is Neuronal acetylcholine receptor; alpha3/beta4 (Rattus norvegicus, UniProt P04757+P12392).
Assay [5] addresses Neuronal acetylcholine receptor; alpha2/beta2 (Rattus norvegicus, UniProt P12389+P12390).

Sequences of proteins named here, by UniProt entry; tags and fusion partners are left off. Residues count along the entry.
UniProt P43144, 26-479 limits assumed: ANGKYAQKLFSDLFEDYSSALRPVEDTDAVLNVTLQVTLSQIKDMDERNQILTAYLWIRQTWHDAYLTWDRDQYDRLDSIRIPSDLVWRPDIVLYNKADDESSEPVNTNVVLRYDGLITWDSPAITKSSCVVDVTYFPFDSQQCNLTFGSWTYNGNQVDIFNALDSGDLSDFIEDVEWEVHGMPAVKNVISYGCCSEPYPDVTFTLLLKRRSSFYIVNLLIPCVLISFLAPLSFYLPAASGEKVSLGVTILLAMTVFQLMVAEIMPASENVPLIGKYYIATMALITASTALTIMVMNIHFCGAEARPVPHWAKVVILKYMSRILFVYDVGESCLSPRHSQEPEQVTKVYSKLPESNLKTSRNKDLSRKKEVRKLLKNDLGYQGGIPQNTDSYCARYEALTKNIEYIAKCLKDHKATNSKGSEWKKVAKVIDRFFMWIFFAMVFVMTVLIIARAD
UniProt Q9JLB5, 25-447 limits assumed: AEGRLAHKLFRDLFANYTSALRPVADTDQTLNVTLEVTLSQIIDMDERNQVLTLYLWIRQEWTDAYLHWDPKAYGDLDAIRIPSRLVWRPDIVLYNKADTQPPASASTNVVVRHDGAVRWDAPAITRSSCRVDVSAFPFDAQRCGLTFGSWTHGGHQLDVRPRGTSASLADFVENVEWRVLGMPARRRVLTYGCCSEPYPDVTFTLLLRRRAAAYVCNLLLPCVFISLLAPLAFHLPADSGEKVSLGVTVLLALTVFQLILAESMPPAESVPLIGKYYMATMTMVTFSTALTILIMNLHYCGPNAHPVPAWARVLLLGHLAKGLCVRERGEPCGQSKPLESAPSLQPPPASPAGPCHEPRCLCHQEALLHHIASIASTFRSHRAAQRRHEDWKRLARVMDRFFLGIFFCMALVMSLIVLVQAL
UniProt Q05941, 23-502 limits assumed: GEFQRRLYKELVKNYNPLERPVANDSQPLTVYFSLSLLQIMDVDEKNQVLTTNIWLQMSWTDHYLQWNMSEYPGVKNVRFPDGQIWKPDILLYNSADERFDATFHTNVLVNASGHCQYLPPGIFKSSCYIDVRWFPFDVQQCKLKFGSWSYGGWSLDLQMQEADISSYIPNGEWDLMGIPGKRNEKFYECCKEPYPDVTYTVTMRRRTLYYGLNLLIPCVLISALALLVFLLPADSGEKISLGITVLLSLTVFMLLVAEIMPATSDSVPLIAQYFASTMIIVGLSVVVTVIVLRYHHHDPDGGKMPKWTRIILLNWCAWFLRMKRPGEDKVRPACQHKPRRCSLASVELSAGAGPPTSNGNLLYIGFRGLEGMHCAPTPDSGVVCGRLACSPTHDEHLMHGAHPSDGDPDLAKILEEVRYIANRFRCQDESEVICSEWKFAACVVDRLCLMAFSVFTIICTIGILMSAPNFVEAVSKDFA
UniProt P04757, 26-499 limits assumed: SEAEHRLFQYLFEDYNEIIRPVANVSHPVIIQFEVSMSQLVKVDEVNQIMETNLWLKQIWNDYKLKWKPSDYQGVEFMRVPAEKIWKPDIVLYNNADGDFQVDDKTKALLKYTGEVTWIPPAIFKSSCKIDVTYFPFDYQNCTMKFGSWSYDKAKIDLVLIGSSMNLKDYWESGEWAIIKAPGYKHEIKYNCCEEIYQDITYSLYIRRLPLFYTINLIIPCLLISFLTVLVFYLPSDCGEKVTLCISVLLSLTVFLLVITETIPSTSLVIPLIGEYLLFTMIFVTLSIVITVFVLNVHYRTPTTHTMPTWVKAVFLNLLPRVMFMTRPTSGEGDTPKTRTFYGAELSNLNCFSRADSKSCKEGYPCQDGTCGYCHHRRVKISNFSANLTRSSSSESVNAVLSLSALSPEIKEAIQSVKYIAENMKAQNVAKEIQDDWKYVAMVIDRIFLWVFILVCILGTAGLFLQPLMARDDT
UniProt P12390, 25-500 limits assumed: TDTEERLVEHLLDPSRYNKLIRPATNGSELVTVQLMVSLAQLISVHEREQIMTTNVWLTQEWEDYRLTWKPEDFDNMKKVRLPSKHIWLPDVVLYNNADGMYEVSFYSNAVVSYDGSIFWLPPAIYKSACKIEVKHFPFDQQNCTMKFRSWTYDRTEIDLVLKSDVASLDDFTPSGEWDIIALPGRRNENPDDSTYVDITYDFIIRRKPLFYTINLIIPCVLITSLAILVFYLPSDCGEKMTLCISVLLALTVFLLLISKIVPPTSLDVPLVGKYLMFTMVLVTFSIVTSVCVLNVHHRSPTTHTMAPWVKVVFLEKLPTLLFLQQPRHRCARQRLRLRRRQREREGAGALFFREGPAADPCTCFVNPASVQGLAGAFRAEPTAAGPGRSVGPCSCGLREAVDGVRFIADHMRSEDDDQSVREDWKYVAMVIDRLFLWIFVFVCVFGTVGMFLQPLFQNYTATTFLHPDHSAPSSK
UniProt P12392, 21-495 limits assumed: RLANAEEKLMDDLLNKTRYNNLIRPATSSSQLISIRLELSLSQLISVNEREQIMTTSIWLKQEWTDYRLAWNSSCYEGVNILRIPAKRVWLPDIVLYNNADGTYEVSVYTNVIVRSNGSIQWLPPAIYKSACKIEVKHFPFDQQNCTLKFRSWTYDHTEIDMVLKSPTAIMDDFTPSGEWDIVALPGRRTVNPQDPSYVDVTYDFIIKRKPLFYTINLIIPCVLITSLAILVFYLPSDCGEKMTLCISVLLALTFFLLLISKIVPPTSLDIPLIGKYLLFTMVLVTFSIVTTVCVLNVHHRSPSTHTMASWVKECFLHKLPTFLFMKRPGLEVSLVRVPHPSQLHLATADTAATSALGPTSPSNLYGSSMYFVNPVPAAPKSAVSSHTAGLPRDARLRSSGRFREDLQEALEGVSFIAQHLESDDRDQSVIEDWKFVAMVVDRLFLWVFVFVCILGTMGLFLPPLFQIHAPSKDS
UniProt P12389, 28-511 limits assumed: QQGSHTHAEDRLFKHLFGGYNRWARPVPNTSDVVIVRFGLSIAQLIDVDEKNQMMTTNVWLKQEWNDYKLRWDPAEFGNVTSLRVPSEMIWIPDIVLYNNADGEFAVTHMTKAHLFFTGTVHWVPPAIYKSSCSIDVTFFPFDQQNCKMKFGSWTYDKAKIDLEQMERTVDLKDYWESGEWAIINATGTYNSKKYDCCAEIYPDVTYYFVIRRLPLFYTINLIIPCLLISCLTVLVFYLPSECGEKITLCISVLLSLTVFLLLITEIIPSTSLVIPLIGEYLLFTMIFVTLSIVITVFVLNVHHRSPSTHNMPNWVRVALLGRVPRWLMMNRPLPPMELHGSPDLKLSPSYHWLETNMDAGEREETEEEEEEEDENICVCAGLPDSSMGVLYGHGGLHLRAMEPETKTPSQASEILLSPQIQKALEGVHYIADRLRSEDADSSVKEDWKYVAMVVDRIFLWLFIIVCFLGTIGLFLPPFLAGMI

These results are taken from ChEMBL document CHEMBL4376895, “Structure and Activity Studies of Disulfide-Deficient Analogues of αO-Conotoxin GeXIVA” (J Med Chem, 2020).

For orientation: IC50 means the concentration that inhibits the measured activity by half. Read a low IC50 as greater potency in that assay.

Structures are written as SMILES.

Take `CC[C@H](C)[C@H](NC(=O)[C@H](CCCNC(=N)N)NC(=O)[C@H](CCCNC(=N)N)NC(=O)[C@@H]1CSSC[C@H](NC(=O)[C@H](Cc2ccc(O)cc2)NC(=O)[C@H](CCCNC(=N)N)NC(=O)CNC(=O)[C@H](CO)NC(=O)[C@H](CO)NC(=O)[C@H](CCCNC(=N)N)NC(=O)[C@H](C)NC(=O)[C@@H](N)[C@@H](C)O)C(=O)N[C@@H](CCCNC(=N)N)C(=O)N[C@@H](CO)C(=O)N2CCC[C@H]2C(=O)N[C@@H](Cc2ccc(O)cc2)C(=O)N[C@@H](CC(=O)O)C(=O)N[C@@H](CCCNC(=N)N)C(=O)N[C@@H](CCCNC(=N)N)C(=O)N[C@@H](CCCNC(=N)N)C(=O)N[C@@H](CCCNC(=N)N)C(=O)N[C@@H](Cc2ccc(O)cc2)C(=O)N1)C(=O)N[C@H](C(=O)N[C@@H](CC(=O)O)C(=O)N[C@@H](C)C(=O)N[C@@H](C)C(=O)N[C@H](C(=O)O)C(C)C)[C@@H](C)O`: the IC50 in assay [1] turned out to be 0.017 µM; in assay [2], 4.58 µM; in assay [3] it was 1.37 µM; in assay [4], 6.31 µM; in assay [5] it was 2.99 µM.
For `CC[C@H](C)[C@H](NC(=O)[C@H](CCCNC(=N)N)NC(=O)[C@H](CCCNC(=N)N)NC(=O)[C@@H]1CSSC[C@H](NC(=O)[C@H](Cc2ccc(O)cc2)NC(=O)[C@H](CCCNC(=N)N)NC(=O)CNC(=O)[C@H](CO)NC(=O)[C@H](CO)NC(=O)[C@H](CCCNC(=N)N)NC(=O)[C@H](CO)NC(=O)[C@@H](N)[C@@H](C)O)C(=O)N[C@@H](CCCNC(=N)N)C(=O)N[C@@H](CO)C(=O)N2CCC[C@H]2C(=O)N[C@@H](Cc2ccc(O)cc2)C(=O)N[C@@H](CC(=O)O)C(=O)N[C@@H](CCCNC(=N)N)C(=O)N[C@@H](CCCNC(=N)N)C(=O)N[C@@H](CCCNC(=N)N)C(=O)N[C@@H](CCCNC(=N)N)C(=O)N[C@@H](Cc2ccc(O)cc2)C(=O)N1)C(=O)N[C@H](C(=O)N[C@@H](CC(=O)O)C(=O)N[C@@H](C)C(=O)N[C@@H](CO)C(=O)N[C@H](C(=O)O)C(C)C)[C@@H](C)O` the same measures were 0.021 µM, 3.02 µM, 1.57 µM, 7.57 µM and 2.23 µM.
In the same order, the values of `CC[C@H](C)[C@H](NC(=O)[C@H](CCCNC(=N)N)NC(=O)[C@H](CCCNC(=N)N)NC(=O)[C@H](CO)NC(=O)[C@H](Cc1ccc(O)cc1)NC(=O)[C@H](CCCNC(=N)N)NC(=O)[C@H](CCCNC(=N)N)NC(=O)[C@H](CCCNC(=N)N)NC(=O)[C@H](CCCNC(=N)N)NC(=O)[C@H](CC(=O)O)NC(=O)[C@H](Cc1ccc(O)cc1)NC(=O)[C@@H]1CCCN1C(=O)[C@H](CO)NC(=O)[C@H](CCCNC(=N)N)NC(=O)[C@@H]1CSSC[C@H](NC(=O)[C@@H](N)[C@@H](C)O)C(=O)N[C@@H](CCCNC(=N)N)C(=O)N[C@@H](CO)C(=O)N[C@@H](CO)C(=O)NCC(=O)N[C@@H](CCCNC(=N)N)C(=O)N[C@@H](Cc2ccc(O)cc2)C(=O)N1)C(=O)N[C@H](C(=O)N[C@@H](CC(=O)O)C(=O)N[C@@H](C)C(=O)N[C@@H](CO)C(=O)N[C@H](C(=O)O)C(C)C)[C@@H](C)O` are 0.011 µM, 1.08 µM, 2.78 µM, 4.28 µM and 9.12 µM.
As for `CC[C@H](C)[C@@H]1NC(=O)[C@H](CCCNC(=N)N)NC(=O)[C@H](CCCNC(=N)N)NC(=O)[C@@H](NC(=O)[C@H](Cc2ccc(O)cc2)NC(=O)[C@H](CCCNC(=N)N)NC(=O)[C@H](CCCNC(=N)N)NC(=O)[C@H](CCCNC(=N)N)NC(=O)[C@H](CCCNC(=N)N)NC(=O)[C@H](CC(=O)O)NC(=O)[C@H](Cc2ccc(O)cc2)NC(=O)[C@@H]2CCCN2C(=O)[C@H](CO)NC(=O)[C@H](CCCNC(=N)N)NC(=O)[C@H](C)NC(=O)[C@H](Cc2ccc(O)cc2)NC(=O)[C@H](CCCNC(=N)N)NC(=O)CNC(=O)[C@H](CO)NC(=O)[C@H](CO)NC(=O)[C@H](CCCNC(=N)N)NC(=O)[C@H](C)NC(=O)[C@@H](N)[C@@H](C)O)CSSC[C@@H](C(=O)N[C@H](C(=O)O)C(C)C)NC(=O)[C@H](C)NC(=O)[C@H](CC(=O)O)NC(=O)[C@H]([C@@H](C)O)NC1=O`, the IC50 is 0.005 to 0.02 µM in assay [1]; 1.71 µM in assay [2]; 4.74 µM in assay [3]; over 10 µM in assay [4]; 9.45 µM in assay [5].
In the same order, the values of `CC[C@H](C)[C@H](NC(=O)[C@H](CCCNC(=N)N)NC(=O)[C@H](CCCNC(=N)N)NC(=O)[C@H](C)NC(=O)[C@H](Cc1ccc(O)cc1)NC(=O)[C@H](CCCNC(=N)N)NC(=O)[C@H](CCCNC(=N)N)NC(=O)[C@H](CCCNC(=N)N)NC(=O)[C@H](CCCNC(=N)N)NC(=O)[C@H](CC(=O)O)NC(=O)[C@H](Cc1ccc(O)cc1)NC(=O)[C@@H]1CCCN1C(=O)[C@H](CO)NC(=O)[C@H](CCCNC(=N)N)NC(=O)[C@@H]1CSSC[C@H](NC(=O)[C@@H](N)[C@@H](C)O)C(=O)N[C@@H](CCCNC(=N)N)C(=O)N[C@@H](CO)C(=O)N[C@@H](CO)C(=O)NCC(=O)N[C@@H](CCCNC(=N)N)C(=O)N[C@@H](Cc2ccc(O)cc2)C(=O)N1)C(=O)N[C@H](C(=O)N[C@@H](CC(=O)O)C(=O)N[C@@H](C)C(=O)N[C@@H](C)C(=O)N[C@H](C(=O)O)C(C)C)[C@@H](C)O` are 0.014 µM, 1.4 µM, 3.25 µM, 6.13 µM and 3.12 µM.
For the compound `CC[C@H](C)[C@H](NC(=O)[C@H](CCCNC(=N)N)NC(=O)[C@H](CCCNC(=N)N)NC(=O)[C@H](CO)NC(=O)[C@H](Cc1ccc(O)cc1)NC(=O)[C@H](CCCNC(=N)N)NC(=O)[C@H](CCCNC(=N)N)NC(=O)[C@H](CCCNC(=N)N)NC(=O)[C@H](CCCNC(=N)N)NC(=O)[C@H](CC(=O)O)NC(=O)[C@H](Cc1ccc(O)cc1)NC(=O)[C@@H]1CCCN1C(=O)[C@H](CO)NC(=O)[C@H](CCCNC(=N)N)NC(=O)[C@H](CO)NC(=O)[C@H](Cc1ccc(O)cc1)NC(=O)[C@H](CCCNC(=N)N)NC(=O)CNC(=O)[C@H](CO)NC(=O)[C@H](CO)NC(=O)[C@H](CCCNC(=N)N)NC(=O)[C@H](CO)NC(=O)[C@@H](N)[C@@H](C)O)C(=O)N[C@H](C(=O)N[C@@H](CC(=O)O)C(=O)N[C@@H](C)C(=O)N[C@@H](CO)C(=O)N[C@H](C(=O)O)C(C)C)[C@@H](C)O`, the IC50 in assay [1] was 0.016 µM; in assay [2], 1.69 µM; in assay [3] it was 2.09 µM; in assay [4], 6.63 µM; in assay [5], 7.52 µM.
For `CC[C@H](C)[C@@H]1NC(=O)[C@H](CCCNC(=N)N)NC(=O)[C@H](CCCNC(=N)N)NC(=O)[C@@H](NC(=O)[C@H](Cc2ccc(O)cc2)NC(=O)[C@H](CCCNC(=N)N)NC(=O)[C@H](CCCNC(=N)N)NC(=O)[C@H](CCCNC(=N)N)NC(=O)[C@H](CCCNC(=N)N)NC(=O)[C@H](CC(=O)O)NC(=O)[C@H](Cc2ccc(O)cc2)NC(=O)[C@@H]2CCCN2C(=O)[C@H](CO)NC(=O)[C@H](CCCNC(=N)N)NC(=O)[C@H](CO)NC(=O)[C@H](Cc2ccc(O)cc2)NC(=O)[C@H](CCCNC(=N)N)NC(=O)CNC(=O)[C@H](CO)NC(=O)[C@H](CO)NC(=O)[C@H](CCCNC(=N)N)NC(=O)[C@H](CO)NC(=O)[C@@H](N)[C@@H](C)O)CSSC[C@@H](C(=O)N[C@H](C(=O)O)C(C)C)NC(=O)[C@H](C)NC(=O)[C@H](CC(=O)O)NC(=O)[C@H]([C@@H](C)O)NC1=O` the same measures were 0.012 µM, 1.52 µM, 3.8 µM, 8.41 µM and 9.06 µM.
For `CC[C@H](C)[C@@H]1NC(=O)[C@H](CCCNC(=N)N)NC(=O)[C@H](CCCNC(=N)N)NC(=O)[C@H](CO)NC(=O)[C@H](Cc2ccc(O)cc2)NC(=O)[C@H](CCCNC(=N)N)NC(=O)[C@H](CCCNC(=N)N)NC(=O)[C@H](CCCNC(=N)N)NC(=O)[C@H](CCCNC(=N)N)NC(=O)[C@H](CC(=O)O)NC(=O)[C@H](Cc2ccc(O)cc2)NC(=O)[C@@H]2CCCN2C(=O)[C@H](CO)NC(=O)[C@H](CCCNC(=N)N)NC(=O)[C@H](CO)NC(=O)[C@H](Cc2ccc(O)cc2)NC(=O)[C@H](CCCNC(=N)N)NC(=O)CNC(=O)[C@H](CO)NC(=O)[C@H](CO)NC(=O)[C@H](CCCNC(=N)N)NC(=O)[C@@H](NC(=O)[C@@H](N)[C@@H](C)O)CSSC[C@@H](C(=O)N[C@H](C(=O)O)C(C)C)NC(=O)[C@H](C)NC(=O)[C@H](CC(=O)O)NC(=O)[C@H]([C@@H](C)O)NC1=O` the same measures were 0.013 µM, 1.51 µM, 1.18 µM, 3.66 µM and 2.16 µM.
For `CC[C@H](C)[C@H](NC(=O)[C@H](CCCNC(=N)N)NC(=O)[C@H](CCCNC(=N)N)NC(=O)[C@H](C)NC(=O)[C@H](Cc1ccc(O)cc1)NC(=O)[C@H](CCCNC(=N)N)NC(=O)[C@H](CCCNC(=N)N)NC(=O)[C@H](CCCNC(=N)N)NC(=O)[C@H](CCCNC(=N)N)NC(=O)[C@H](CC(=O)O)NC(=O)[C@H](Cc1ccc(O)cc1)NC(=O)[C@@H]1CCCN1C(=O)[C@H](CO)NC(=O)[C@H](CCCNC(=N)N)NC(=O)[C@H](CO)NC(=O)[C@H](Cc1ccc(O)cc1)NC(=O)[C@H](CCCNC(=N)N)NC(=O)CNC(=O)[C@H](CO)NC(=O)[C@H](CO)NC(=O)[C@H](CCCNC(=N)N)NC(=O)[C@H](CO)NC(=O)[C@@H](N)[C@@H](C)O)C(=O)N[C@H](C(=O)N[C@@H](CC(=O)O)C(=O)N[C@@H](C)C(=O)N[C@@H](C)C(=O)N[C@H](C(=O)O)C(C)C)[C@@H](C)O` the same measures were 0.013 µM, 4.11 µM, 3.71 µM, 5.75 µM and 4.9 µM.
